Test results reported in patent US20160264649A1.

B1: 4858_P08 (PGT-123) (antibody, V domains shown)
VH: QLHLQESGPGLVKPPETLSLTCSVSGASINDAYWSWIRQSPGKRPEWVGYVHHSGDTNYNPSLKRRVTFSLDTAKNEVSLKLVDLTAADSATYFCARALHGKRIYGIVALGELFTYFYMDVWGKGTAVTVSS
VL: SSMSVSPGETAKISCGKESIGSRAVQWYQQKPGQPPSLIIYNNQDRPAGVPERFSASPDFRPGTTATLTITNVDAEDEADYYCHIYDARGGTNWVFDRGTTLTVL
B2: 4838_L06 (PGT-121) (antibody, V domains shown)
VH: QMQLQESGPGLVKPSETLSLTCSVSGASISDSYWSWIRRSPGKGLEWIGYVHKSGDTNYSPSLKSRVNLSLDTSKNQVSLSLVAATAADSGKYYCARTLHGRRIYGIVAFNEWFTYFYMDVWGNGTQVTVSS
VL: SDISVAPGETARISCGEKSLGSRAVQWYQHRAGQAPSLIIYNNQDRPSGIPERFSGSPDSPFGTTATLTITSVEAGDEADYYCHIWDSRVPTKWVFGGGTTLTVL
B3: 5123_A06 (PGT-125) (antibody, V domains shown)
VH: QSQLQESGPRLVEASETLSLTCNVSGESTGACTYFWGWVRQAPGKGLEWIGSLSHCQSFWGSGWTFHNPSLKSRLTISLDTPKNQVFLKLTSLTAADTATYYCARFDGEVLVYNHWPKPAWVDLWGRGIPVTVSS
VL: QSALTQPPSASGSPGQSITISCNGTATNFVSWYQQFPDKAPKLIIFGVDKRPPGVPDRFSGSRSGTTASLTVSRLQTDDEAVYYCGSLVGNWDVIFGGGTTLTVL
B4: 4877_D15 (PGT-122) (antibody, V domains shown)
VH: QVHLQESGPGLVKPSETLSLTCNVSGTLVRDNYWSWIRQPLGKQPEWIGYVHDSGDTNYNPSLKSRVHLSLDKSKNLVSLRLTGVTAADSAIYYCATTKHGRRIYGVVAFKEWFTYFYMDVWGKGTSVTVSS
VL: TFVSVAPGQTARITCGEESLGSRSVIWYQQRPGQAPSLIIYNNNDRPSGIPDRFSGSPGSTFGTTATLTITSVEAGDEADYYCHIWDSRRPTNWVFGEGTTLIVL

Columns and labels:
Experiment in all cases: cell-based or functional assay
[1] = molecular target: HIV-1 Env of the clade AE viruses (n=10) of the cross-clade 162-pseudovirus panel
[2] = molecular target: HIV-1 Env of the clade B viruses (n=31) of the cross-clade 162-pseudovirus panel
[3] = molecular target: HIV-1 Env of the 162-pseudovirus panel representing all major circulating HIV-1 subtypes (HIV-1)
[4] = molecular target: HIV-1 Env of the clade F viruses (n=15) of the cross-clade 162-pseudovirus panel
[5] = molecular target: HIV-1 Env of the clade AG viruses (n=10) of the cross-clade 162-pseudovirus panel
[6] = molecular target: HIV-1 Env of the clade G viruses (n=15) of the cross-clade 162-pseudovirus panel
[7] = molecular target: HIV-1 Env of the clade C viruses (n=27) of the cross-clade 162-pseudovirus panel
[8] = molecular target: HIV-1 Env of the clade D viruses (n=25) of the cross-clade 162-pseudovirus panel
[9] = molecular target: HIV-1 Env of all viruses (n=162) of the cross-clade 162-pseudovirus panel
[10] = molecular target: HIV-1 Env of the clade A viruses (n=26) of the cross-clade 162-pseudovirus panel

Binder	Median IC50 (µg/ml) against all viruses [1]	Percent viruses neutralized with an IC50 <50 µg/ml [1]	Percent viruses neutralized with an IC50 <50 µg/ml [2]	Median IC50 (µg/ml) against viruses neutralized with an IC50 <50 µg/ml [3]	Percent viruses neutralized, IC50 < 0.1 µg/ml [3]	Percent viruses neutralized, IC50 < 1 µg/ml [3]	Percent viruses neutralized, IC50 < 50 µg/ml [3]	Median IC50 (µg/ml) against all viruses [4]	Percent viruses neutralized with an IC50 <50 µg/ml [4]	Median IC50 (µg/ml) against all viruses [5]	Median IC50 (µg/ml) against viruses neutralized with an IC50 <50 µg/ml [5]	Percent viruses neutralized with an IC50 <50 µg/ml [5]	Percent viruses neutralized with an IC50 <50 µg/ml [6]	Percent viruses neutralized with an IC50 <50 µg/ml [7]	Median IC50 (µg/ml) against all viruses [8]	Percent viruses neutralized with an IC50 <50 µg/ml [8]	Median IC50 (µg/ml) against all viruses [9]	Median IC50 (µg/ml) against viruses neutralized with an IC50 <50 µg/ml [9]	Median IC50 (µg/ml) against all viruses [10]	Percent viruses neutralized with an IC50 <50 µg/ml [10]	other results
B1	50 µg/mL	0%	81%	0.03 µg/mL	40%	54%	67%	0.31 µg/mL	80%	8.04 µg/mL	0.61 µg/mL	60%	80%	85%	50 µg/mL	48%	0.35 µg/mL	0.03 µg/mL	0.69 µg/mL	58%	Median IC50 (µg/ml) against viruses neutralized with an IC50 <50 µg/ml [4]: 0.09 µg/mL; Median IC50 (µg/ml) against viruses neutralized with an IC50 <50 µg/ml [7]: 0.01 µg/mL
B2	50 µg/mL	–	84%	0.03 µg/mL	44%	57%	70%	0.17 µg/mL	80%	0.6 µg/mL	0.49 µg/mL	70%	80%	85%	50 µg/mL	48%	0.31 µg/mL	0.03 µg/mL	0.87 µg/mL	62%	Median IC50 (µg/ml) against viruses neutralized with an IC50 <50 µg/ml [8]: 0.01 µg/mL; Percent viruses neutralized with an IC50 <50 µg/ml [9]: 70%
B3	1.61 µg/mL	60%	74%	0.04 µg/mL	32%	40%	52%	50 µg/mL	20%	50 µg/mL	0.01 µg/mL	30%	27%	56%	50 µg/mL	40%	34.1 µg/mL	0.04 µg/mL	0.16 µg/mL	65%	Median IC50 (µg/ml) against viruses neutralized with an IC50 <50 µg/ml [1]: 0.03 µg/mL; Median IC50 (µg/ml) against all viruses [2]: 0.06 µg/mL; Median IC50 (µg/ml) against viruses neutralized with an IC50 <50 µg/ml [2]: 0.02 µg/mL; Median IC50 (µg/ml) against viruses neutralized with an IC50 <50 µg/ml [4]: 0.04 µg/mL; Median IC50 (µg/ml) against all viruses [6]: 50 µg/mL; Median IC50 (µg/ml) against viruses neutralized with an IC50 <50 µg/ml [6]: 0.02 µg/mL; Median IC50 (µg/ml) against all viruses [7]: 37.5 µg/mL; Median IC50 (µg/ml) against viruses neutralized with an IC50 <50 µg/ml [7]: 1.83 µg/mL; Median IC50 (µg/ml) against viruses neutralized with an IC50 <50 µg/ml [8]: 0.09 µg/mL; Percent viruses neutralized with an IC50 <50 µg/ml [9]: 52%; Median IC50 (µg/ml) against viruses neutralized with an IC50 <50 µg/ml [10]: 0.01 µg/mL
B4	50 µg/mL	0%	84%	0.05 µg/mL	36%	48%	65%	1.29 µg/mL	80%	38.5 µg/mL	2.75 µg/mL	60%	80%	81%	50 µg/mL	40%	2.02 µg/mL	0.05 µg/mL	3.69 µg/mL	58%	Median IC50 (µg/ml) against viruses neutralized with an IC50 <50 µg/ml [2]: 0.02 µg/mL; Median IC50 (µg/ml) against viruses neutralized with an IC50 <50 µg/ml [4]: 0.43 µg/mL; Median IC50 (µg/ml) against viruses neutralized with an IC50 <50 µg/ml [7]: 0.03 µg/mL; Median IC50 (µg/ml) against viruses neutralized with an IC50 <50 µg/ml [8]: 0.02 µg/mL; Percent viruses neutralized with an IC50 <50 µg/ml [9]: 65%; Median IC50 (µg/ml) against viruses neutralized with an IC50 <50 µg/ml [10]: 0.07 µg/mL
